The entries are a selection whose mix differs from that of the whole data set. Inconclusive results are not listed. The source made the active and inactive calls. The call rests on the fitted dose curve; tested in HEK293 cells.
test: qHTS for Inhibitors of binding or entry into cells for Lassa Virus; details: Lassa virus pseudotype entry inhibition, cell reporter; at 46.1 µM (top of the series) unless noted; further: nearly all actives have a fitted effect of over 50% in size
On the % scale 0 is the no-effect control and ±100 the full control effect.

| Compound | activity change, negative = inhibition |
| --- | --- |
| O=C(OC1CN2CCC1CC2)c1ccc([N+](=O)[O-])cc1 (centres undefined) | inactive: -1.05% |
| O=P1(N(CCCl)CCCl)SCCCS1 | inactive: 4.33% |
| O=C1C(O)=C([N+](=O)[O-])C(=O)C(O)=C1[N+](=O)[O-] | inactive: -10.2% |
| N/C(=N\O)c1c(N)no[n+]1[O-] | inactive: -9.11% [at 37.9 µM] |

Reference: PubChem BioAssay AID540256 (National Center for Advancing Translational Sciences (NCATS), 2011)
